For assay [1], the system named is SKOV-3 human ovarian adenocarcinoma xenograft. The assay is described as follows: SK-OV-3 human ovarian xenograft antitumor efficacy. It counts as in vivo, CB17 SCID mice.
Assay [2] relates to OVCAR-5 human ovarian adenocarcinoma xenograft. Put plainly: OVCAR-5 human ovarian xenograft antitumor efficacy. It counts as in vivo, CB17 SCID mice. Background: Xenograft models place foreign cells or tissue in a host animal.
The mark [3] stands for this setting: OVCAR-5 xenograft, single i.p. dose on d-1.

Consider `O=C(O)CCOc1ccc(N(CCCl)CCCl)cc1`, for which the “antitumor activity (in words)” value in assay [1] (SK-OV-3-bearing mice) and in assay [2] (OVCAR-5-bearing mice) was “no significant antitumor activity” throughout. The “Response Rate (RR)” value in assay [1] (SK-OV-3 xenograft, tumor volume regression >50%) was determined as 0%; in assay [2] (OVCAR-5 xenograft, tumor volume regression >50%), 0%. The “Cures (mice alive for 120 days after tumor inoculation)” value in assay [2] (setting [3]) is on record as 0/5. Besides, the “TI% (Tumor Inhibition)” value in assay [2] (setting [3]) came out at 6.22%.
